Patent US20120207760A1, “Compositions and Methods for the Therapy and Diagnosis of Influenza” (THERACLONE SCIENCES, published 2012)

Key:
[1] = biological target: recombinant soluble homotrimeric HA of A/chicken/Vietnam/NCVD-016/08 - H5N1 (Influenza A virus …); test: micro-array; captured IgG, V5-tagged trimeric HA
[2] = biological target: recombinant soluble homotrimeric HA of A/northern shoveler/California/HKWF115/2007 - H6N1 (Influenza A virus A/northern …); test: micro-array; captured IgG, V5-tagged trimeric HA
[3] = biological target: recombinant soluble homotrimeric HA of A/duck/Yangzhou/02/2005 - H8N4 (Influenza A virus …); test: micro-array; captured IgG, V5-tagged trimeric HA
[4] = biological target: recombinant soluble homotrimeric HA of A/Hong Kong/156/97 - H5N1 (Influenza A virus A/Hong Kong/156/97 …); test: micro-array; captured IgG, V5-tagged trimeric HA
[5] = biological target: recombinant soluble homotrimeric HA of A/California/4/09 (H1N1) (Influenza A virus A/California/4/09 …); test: microarray, BCC supernatant IgG, trimeric HA
[6] = biological target: recombinant soluble homotrimeric HA of A/Solomon Islands/3/06 (H1N1) (Influenza A virus A/Solomon …); test: microarray, BCC supernatant IgG, trimeric HA
[7] = biological target: recombinant soluble homotrimeric HA of A/Egypt/3300-NAMRU3/08 (H5N1) (Influenza A virus …); test: microarray, BCC supernatant IgG, trimeric HA
[8] = biological target: recombinant soluble homotrimeric HA of A/chicken/Vietnam/NCVD-016/08 (H5N1) (Influenza A virus …); test: microarray, BCC supernatant IgG, trimeric HA
[9] = biological target: recombinant soluble homotrimeric HA of A/northern shoveler/California/HKWF115/07 (Influenza A virus A/northern …); test: microarray, BCC supernatant IgG, trimeric HA
[10] = biological target: recombinant soluble homotrimeric HA of A/duck/Yangzhou/02/05 (H8N4) (Influenza A virus …); test: microarray, BCC supernatant IgG, trimeric HA
[11] = biological target: recombinant soluble homotrimeric HA of A/Wisconsin/67/05 (H3N2) (Influenza A virus A/Wisconsin/67/05 …)
[12] = biological target: hemagglutinin (HA) of influenza A/Wisconsin/67/05 H3N2 (Influenza A virus A/Wisconsin/67/2005 …); test: ELISA, inactivated whole virions coated; transfection supernatant set 5

B1: TCN-536 (5095_N01) (antibody, V domains shown)
VH: QVQLQQWGAGLLKPSETLSLTCAVYGGSFSVSGYYWSWIRQPPGRGLEWIGEISHGGSTNYNPSLKSRVTISVDTTKNQFSLRLSSVTAADTAVYYCARGTDPDTEVYCRVGNCAAFDYWGQGSLVTVSS
VL: EIILAQSPGTLSLSPGERATLSCRASQFVSTRSLAWYQQRPGQAPRLLIYGASSRATGIPDRFSGSGSGTDFTLTISRLEPEDFAVYYCQHYGYSPRYAFGQGSKVEIK
- Trimeric HA Binding: RLU [1]: 19 RLU
- Trimeric HA Binding: RLU [2]: 95 RLU

B2: TCN-537 (3194_D21) (antibody, V domains shown)
VH: QVQLQQWGSGLLKPSETLSLTCAVYGGSFRDDYWTWIRQPPGKGLEWIGEINHSGRTNYNPSLKSRVTISVDTSLKQFSLKVISVTAADTAVYYCARGTSHVSRYFDWLPPTNWFDPWGQGTQVTVSS
VL: DIVLTQSPGTLSLSPGERATLSCRASQSVSSSYLAWYQQKPGQAPRLVMYGAATRATGIPDRFSGSGSGPDFTLTISRLEPEDFAMYYCQQYGNSPITFGQGTRLEIK
- Trimeric HA Binding: RLU [1]: 4480 RLU
- Trimeric HA Binding: RLU [3]: 25500 RLU

B3: TCN-544 (5082_A19) (antibody, V domains shown)
VH: QVQLQESGPGLVKPSETLSLTCTVSRGSIGHYFWSWIRQPPGKGLEWIGYISYSGSTKYNPSLRSRVTISVDTSKNQFSLNLNSVTATDTALYYCAREDYDILTGAGPGMEVWGQGTTVTVSS
VL: QSMLTQPPSASGTPGQRVTISCSGSSSNIGSNTVNWFKHLPGTAPKLLIYRNDLRPSGVPDRFSGSKSGTSASLAISGLQSEDEADYYCATWDDSLNGFYVFGTGTKVTVL
- Trimeric HA Binding: RLU [1]: 3070 RLU
- Trimeric HA Binding: RLU [2]: 2920 RLU
- Trimeric HA Binding: RLU [3]: 9440 RLU

B4: TCN-545 (5082_I15) (antibody, V domains shown)
VH: QVQLQQWGAGLLKPSETLSLSCAVFGGSFSDYYWTWIRQPPGKGLEWIGEIKHSGRTNYNPSLESRVTISVDTSKNQFSLKLSSVTAADTAIYYCARGTDPDTEGYCRSGSCSAFDFWGQGTLVTVSS
VL: EIVLTQSPGTLSLSPGERATLSCRASHFVNYRSLAWYQQTPGQVPRLLIYGASTRATGIPDRFSGSGSGTDFTLTISRLEPEDFAVYFCQQYGGSPRYTFGQGTRLEIK
- Trimeric HA Binding: RLU [1]: 3230 RLU
- Trimeric HA Binding: RLU [3]: 13200 RLU

B5: TCN-548 (5092_P01) (antibody, V domains shown)
VH: QVQLQESGPGLVKPSETLSLTCTVSSGPMSDYYWSWIRQPPGKGLEWIGHVSVSHGGRTKSNPSVMSRVTISVETSKNQFSLKLTSVTAADTAVYYCARLNYYDRSGYHSPDGPSNNWFDPWGQGTLVTVSS
VL: DIVMTQSPDSLAVSLGERATINCKSSQSVLYSSNNKNYLAWYQQKPGQPPKLLIYWASTRESGVPDRISGSGSGADFTLTISSLQAEDVAVYYCQQYFATPRTFGQGTKVEIK
- Trimeric HA Binding: RLU [1]: 1060 RLU
- Trimeric HA Binding: RLU [2]: 2100 RLU
- Trimeric HA Binding: RLU [3]: 5740 RLU

B6: TCN-549 (5092_P04) (antibody, V domains shown)
VH: QVQLVQSGAEVKKPGASVKVSCKASGYTFTGYYMHWVRQAPGQGLEWMGWINPNSGDTNYAQKFQGRVTMTRDTSITTAYMELSSLRSDDTAVYYCARDSPYSSSWSFFDYWGQGPLVTVSS
VL: DIVMTQSPDSLAVSLGERATINCKSSQSVLYSSNNKSHLAWYQQKPGQPPKLLIYWASTRESGVPDRFSGSGSGTDFTLIISSLQAEDVAVYYCQQYYFSPLTFGGGTKVEIK
- Trimeric HA Binding: RLU [1]: 1600 RLU
- Trimeric HA Binding: RLU [2]: 996 RLU
- Trimeric HA Binding: RLU [3]: 9450 RLU

B7: TCN-550 (5096_F06) (antibody, V domains shown)
VH: QVQLQESGPGLVKPSETLSLTCTVSGASINSHYWSWIRQPPGKGLEWIGYVYYSGSTTYNPSLKSRVTLSVDTSKNQFSLNLSSVTAADTAFYYCARHPYDVLTGSGDWFDPWGQGTLVTVSS
VL: SYVLTQAPSVSVAPGQTARITCGGNAIGSKKVHWYQHKAGQAPVLVVYDDTDRPSGIPERFSGSNSWSTATLTINRVEAGDEADYYCQVWDFTIDHVVFGGGTKLTVL
- Trimeric HA Binding: RLU [1]: 1800 RLU
- Trimeric HA Binding: RLU [4]: 955 RLU
- Trimeric HA Binding: RLU [2]: 2300 RLU
- Trimeric HA Binding: RLU [3]: 4710 RLU

B8: TCN-522 (3212_I12) (antibody, V domains shown)
VH: QVQLQQWGAGLLKPSETLSLTCTVSGGSLTDYSWNWIRQPPGKGLEWIGDTLHNGYTNYNPSLRGRVSISIDTSKNQVSLRLTSVTAADTALYYCARGSGGYGGFDYFGKLRTWDFWGQGTLVTVSS
VL: DIQLTQSPSSLSASVGDRVTITCRASQGIRNDLGWYQQKPGNAPKRLIFGASSLQSGVPSRFSGSGSGTEFTLTISSLQPEDFATYYCLQHNSYPYTFGQGTKLEIK
- Trimeric HA Binding: RLU [5]: 5020 RLU
- Trimeric HA Binding: RLU [6]: 38900 RLU

B9: TCN-535 (5246_P19) (antibody, V domains shown)
VH: QVQLVQSGSEVKKPGTSVKVSCTASGSVFTNYGISWVRQAPGQGLEWMGGIIPLFGAAKYAQKFQGRVTITADESTKTVYMELSRLTSKDTAIYFCAKAPRVYEYYFDQWGQGTPVTVSS
VL: EIVLTQSPGTLSLSPGERATLSCRASQSVSSSQLAWYQQKPGQAPRLIIYGASTRATGIPDRFSGSGSGTDFTLTIGRLEPEDFAVFFCQQYSTSPPTFGQGTKVDFK
- Trimeric HA Binding: RLU [5]: 48600 RLU
- Trimeric HA Binding: RLU [6]: 39400 RLU
- Trimeric HA Binding: RLU [7]: 39400 RLU
- Trimeric HA Binding: RLU [8]: 50000 RLU
- Trimeric HA Binding: RLU [9]: 48200 RLU
- Trimeric HA Binding: RLU [10]: 36600 RLU

B10: TCN-537 (3194_D21) (antibody, V domains shown)
VH: QVQLQQWGSGLLKPSETLSLTCAVYGGSFRDDYWTWIRQPPGKGLEWIGEINHSGRTNYNPSLKSRVTISVDTSLKQFSLKVISVTAADTAVYYCARGTSHVSRYFDWLPPTNWFDPWGQGTQVTVSS
VL: DIVLTQSPGTLSLSPGERATLSCRASQSVSSSYLAWYQQKPGQAPRLVMYGAATRATGIPDRFSGSGSGPDFTLTISRLEPEDFAMYYCQQYGNSPITFGQGTRLEIK
- Trimeric HA Binding: RLU [11]: 549 RLU
- Trimeric HA Binding: RLU [5]: 21900 RLU
- Trimeric HA Binding: RLU [7]: 38200 RLU
- Trimeric HA Binding: RLU [8]: 8620 RLU
- Trimeric HA Binding: RLU [9]: 5210 RLU
- Trimeric HA Binding: RLU [10]: 7830 RLU

B11: TCN-548 (5092_P01) (antibody, V domains shown)
VH: QVQLQESGPGLVKPSETLSLTCTVSSGPMSDYYWSWIRQPPGKGLEWIGHVSVSHGGRTKSNPSVMSRVTISVETSKNQFSLKLTSVTAADTAVYYCARLNYYDRSGYHSPDGPSNNWFDPWGQGTLVTVSS
VL: DIVMTQSPDSLAVSLGERATINCKSSQSVLYSSNNKNYLAWYQQKPGQPPKLLIYWASTRESGVPDRISGSGSGADFTLTISSLQAEDVAVYYCQQYFATPRTFGQGTKVEIK
- Trimeric HA Binding: RLU [5]: 234 RLU
- Trimeric HA Binding: RLU [6]: 283 RLU
- Trimeric HA Binding: RLU [10]: 184 RLU

B12: TCN-549 (5092_P04) (antibody, V domains shown)
VH: QVQLVQSGAEVKKPGASVKVSCKASGYTFTGYYMHWVRQAPGQGLEWMGWINPNSGDTNYAQKFQGRVTMTRDTSITTAYMELSSLRSDDTAVYYCARDSPYSSSWSFFDYWGQGPLVTVSS
VL: DIVMTQSPDSLAVSLGERATINCKSSQSVLYSSNNKSHLAWYQQKPGQPPKLLIYWASTRESGVPDRFSGSGSGTDFTLIISSLQAEDVAVYYCQQYYFSPLTFGGGTKVEIK
- Trimeric HA Binding: RLU [6]: 284 RLU
- Trimeric HA Binding: RLU [8]: 498 RLU
- Trimeric HA Binding: RLU [9]: 1100 RLU

B13: TCN-542 (5079_A16) (antibody, V domains shown)
VH: QVQLQESGPGLVKPSQTLSLTCTVSGGSISSGNYYWNWVRQHPGKGLEWIGYIYYRGSTFYNPSLKSRVTISIDTSKNQFSLRLSSVTAADTAVYYCAKDTRSSLDNYQYGMDVWGQGTTVTVSS
VL: QTVVTQEPSLTVSPGGTVTLTCASSTGAVTSSYFPNWFQQKPGQAPRPLIYSTTIRHSWTPARFSGSLLGGKAALTLSGVQPEDEADYYCLLYSGGDPVAFGGGTKLTVL
- Trimeric HA Binding: RLU [10]: 332 RLU

B14: TCN-557 (5081_A04) (antibody, V domains shown)
VH: QVQLVQSGAEVKKPGASVKVSCKASGHTFTGYYIHWVRQAPGQGLEWMGWINPDSGATSSAQNFQGRVTMTGDTSSSTAYMELSRLSFDDTAVYYCARVLFTSPFDFWGEGTLVTVSS
VL: QAVVTQEPSLAVSPGGTVTLTCGSSTGAVTRGHYPYWFQQKPGQAPRALIYDSAGNRHSWTPARFSGSLLGGKAALTLSGAQPEDEAEYYCLLSYSGVWVFGGGTKLTVL
- OD450 [12]: 3.47 OD450

B15: TCN-558 (5248_H10b) (antibody, V domains shown)
VH: QVQLVQSGSEVKKPGTSVKVSCTASGSVFTNYGISWVRQAPGQGLEWMGGIIPLFGAAKYAQKFQGRVTITADESTKTVYMELSRLTSKDTAIYFCAKAPRVYEYYFDQWGQGTPVTVSS
VL: EIVMTQFPATLSVSPGERVTLSCRASQSVSNNLAWYQQKPGQPPRLLIYDASTRATGVPAKFSGTGSGTEFTLSISSLQSEDFAVYYCQQYHNWPPSYSFGLGTKLEIK
- OD450 [12]: 0.2 OD450

B16: TCN-560 (5084_P10) (antibody, V domains shown)
VH: EVQLVESGGGLVQPGGSLRLSCAASGFIFRNYWMSWVRQAPGKGLEWVANIKQDGREKYYVDSLRGRVNISRDNAENSLYLHMNSLRVEDTAVYFCARARMVVVTGDGFDVWGHGTMVTVSS
VL: DIQMTQSPSSLSASVGDRVTITCRASQNIKRYFNWYQQKPGKAPKLLIYAASNLENGVPSRFSGSGSGTDFTLTISSLQPEDFATYYCQQSFSKSWTFGQGTNVDIK
- OD450 [12]: 0.3 OD450
